{"source": "patent US20220387578A1", "about": "“Peptide vaccine based on a new universal influenza a hemagglutinin head domain epitope and human monoclonal antibodies binding thereto” (VANDERBILT UNIVERSITY, published 2022)", "molecular_target": "H3 HA A/Hong Kong/1/1968 (H3N2), recombinant soluble trimer (influenza A virus, UniProt Q91MA7 17-530)"}
{"binder": "rFluA-20 heavy chain mutant D98A (antibody, V domains shown) VH: QVQLQESGPGLVKPSETLSLTCSVSGVSVTSDIYYWTWIRQPPGKGLEWIGYIFYNGDTNYNPSLKSRVTMSIDTSKNEFSLRLTSVTAADTAVYFCARGTEALGYCSSGSCPNHWGQGTLVTVSS VL: DIQMTQSPSSLSASIGDRVTITCRPSQNIRSFLNWFQHKPGKAPKLLIYAASNLQSGVPSRFSGSGSGTEFTLTIRSLQPEDFATYYCQQSYNTPPTFGQGTKVEIK", "values": [{"measurement": "binding result", "result": "no binding (tested: 10 µg/mL)"}]}
